Measurements taken from publication PMC5681660, “Reduced hepatitis B and D viral entry using clinically applied drugs as novel inhibitors of the bile acid transporter NTCP” (Scientific Reports, 2017).
Where two headings read alike, the source gives them in different places. Blank lines part the entries; values can stand above or below the substance they belong to.

Legend:
human NTCP [1] = target: T1, human NTCP (Homo sapiens, UniProt Q14973); test: Screening taurocholate uptake assay (96-well, [14C]taurocholate, 10 µM drug)
T1 sequence (Q14973 1-349): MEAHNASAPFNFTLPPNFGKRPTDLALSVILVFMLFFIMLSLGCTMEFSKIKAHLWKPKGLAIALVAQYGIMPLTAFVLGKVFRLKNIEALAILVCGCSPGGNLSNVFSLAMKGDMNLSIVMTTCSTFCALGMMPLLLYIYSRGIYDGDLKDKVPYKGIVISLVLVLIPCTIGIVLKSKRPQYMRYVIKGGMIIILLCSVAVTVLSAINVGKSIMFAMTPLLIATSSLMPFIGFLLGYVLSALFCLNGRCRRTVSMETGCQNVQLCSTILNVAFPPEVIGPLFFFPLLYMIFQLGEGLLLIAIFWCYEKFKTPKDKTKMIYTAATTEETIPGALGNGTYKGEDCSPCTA

human NTCP [2] = target: T1, human NTCP; test: Screening fluorescent competitive Myrcludex B-FITC binding assay (96-well, 10 µM drug)
[3] = Prestwick library screen, Myrcludex B-FITC binding
[4] = screen, Myrcludex B-FITC binding
[5] = screening taurocholate uptake, 10 µM drug, Prestwick library
[6] = screening Myrcludex B-FITC binding
[7] = screening Myrcludex B-FITC binding, Prestwick library

Substance: Cyanocobalamin
%NTCP activity (human NTCP [1]): 41.5146%
%NTCP binding (human NTCP [2]; [3]): 68.6256%

%NTCP activity (human NTCP [1]; screen, 10 µM drug, [14C]taurocholate uptake): 97.5753%
%NTCP binding (human NTCP [2]; [4]): 85.5398%
Substance: Eburnamonine (-)

Substance: Colistin sulfate
%NTCP activity (human NTCP [1]; [5]): 21.2205%
B-score binding assay (human NTCP [2]; [6]): 0.936
%NTCP binding (human NTCP [2]; [7]): 84.9553%

Substance: Norgestrel-(-)-D
%NTCP activity (human NTCP [1]): 89.1345%
%NTCP binding (human NTCP [2]; [3]): 82.4714%

B-score binding assay (human NTCP [2]; [6]): -8.361
Substance: Verteporfin

Substance: Tyloxapol
%NTCP activity (human NTCP [1]): 53.7408%
%NTCP binding (human NTCP [2]; [4]): 93.207%

Substance: R(-) Apomorphine hydrochloride hemihydrate
%NTCP activity (human NTCP [1]; [5]): 74.8711%
%NTCP binding (human NTCP [2]; [7]): 93.5426%

%NTCP activity (human NTCP [1]; Prestwick library screen, 10 µM drug, [14C]taurocholate uptake): 73.3638%
%NTCP binding (human NTCP [2]; [3]): 126.924%
Substance: Spiramycin

B-score binding assay (human NTCP [2]; [6]): -3.125
Substance: (S)-(-)-Cycloserine

%NTCP binding (human NTCP [2]; [3]): 98.4794%
Substance: (-) -Levobunolol hydrochloride

Substance: Deoxycorticosterone
%NTCP activity (human NTCP [1]): 53.4598%
%NTCP binding (human NTCP [2]; [4]): 83.6373%

Substance: Bacitracin
%NTCP activity (human NTCP [1]): 51.4928%
